Measured values from ChEMBL document CHEMBL3596151, “Elucidation of the in vitro and in vivo activities of bridged 1,2,4-trioxolanes, bridged 1,2,4,5-tetraoxanes, tricyclic monoperoxides, silyl peroxides, and hydroxylamine derivatives against Schistosoma mansoni” (Bioorg Med Chem, 2015).

Key:
[1] = system: Schistosoma mansoni; test: Antischistosomal activity against adult Schistosoma mansoni assessed as decrease in viability after 72 hrs by microscopic analysis
[2] = system: Schistosoma mansoni; test: Antischistosomal activity against newly transformed Schistosoma mansoni cercariae assessed as decrease in viability after 72 hrs by microscopic analysis

| SMILES | IC50 [1] [µM] | IC50 [2] [µM] |
| --- | --- | --- |
| CC(C)C[C@]12OO[C@](C)(OO1)C2C (some centres not stated) | 20.8 | – |
| CC(C)C[C@]12C[C@](C)(OO1)OO2 | 7.4 | 3.7 |
| CC(C)(C)[C@]12C[C@](C(C)(C)C)(OO1)OO2 | 12.1 | – |
| CC[C@]12C[C@](CC(C)C)(OO1)OO2 | 20.9 | 4.7 |
| CC(=O)CCC1(Cc2ccc([N+](=O)[O-])cc2)[C@]2(C)OO[C@@]1(C)OO2 (some centres not stated) | 23.6 | – |
